These are literature values, as cited in publication PMC4981318.

For this series, the target named is gp41 35-144 (construct B, core N-HR/C-HR) none stated (IL replaced by L6 spacer) (UniProt P04578). Kind of series: not stated in this article (quoted from refs 51 and 38). The note with it: pH 7.6; 150 mM NaCl at pH 7.6; not stated at low pH; 10 mM Tris at pH 7.6; not stated at pH 3.5 to 6; cited from earlier work.

Regarding “gp41 35-144 (construct B, core N-HR/C-HR) none stated (IL replaced by L6 spacer)”, the trimer dissociation constant entry was “below 250 nM”.
